Pooled drug test results. Numbers come from NIAID ChemDB, via PubChem.

Shared fields: enzyme or target tests

An empty or dashed field is not shown. a–b is a range or a potency band. Inhibition is in % at the dose shown (toxicity tests: loss of growth or viability). ICn is the concentration giving n% inhibition. Neighbouring rows are from separate reports.

compound | protein | dose | endpoint | strain | species | method | value
CNC(=O)c1c(-c2ccc(F)cc2)oc2cc(N(CC(C)O)S(C)(=O)=O)c(OC(C)C)cc12 | Nonstructural protein 5B | - | IC50 | - | Hepatitis C virus | - | ≤0.5 µM
COCCNC(=O)c1cnc(SC)nc1Nc1ccc2[nH]ncc2c1 | Reverse transcription | - | IC50 | - | Hepatitis B virus | - | <1 µg/mL
COc1nc(Nc2ccc3[nH]ncc3c2)nc(NN2CCN(C)CC2)n1 | DNA polymerase | 0.1 µg/mL | inhibition | - | Hepatitis B virus | - | 22%
COc1ccc2cc(OC[C@@H]3C[C@H]4C(=O)N(C)CCCC/C=C/[C@@H]5C[C@@]5(C(=O)O)NC(=O)N34)c(-c3nc(C(C)C)cs3)nc2c1Cl | Nonstructural protein 3/4A | - | IC50 | - | Hepatitis C virus | FRET | <1 µM
CNC(=O)c1c(-c2ccc(F)cc2)oc2ccc(OCc3cccc(C(=O)O)c3)cc12 | Nonstructural protein 5B | - | IC50 | - | Hepatitis C virus | - | ≤0.5 µM
CC(C)(C)OC(=O)CCNC(=O)Nc1nc2c(s1)-c1nc(-c3ccccc3Cl)ncc1CC2 | PI4KIIIalpha | - | IC50 | Con1 | Hepatitis C virus | PCR | 0.45 µM
COc1nc(NCCO)nc(Nc2ccc3cn[nH]c3c2)n1 | DNA polymerase | 1 µg/mL | inhibition | - | Hepatitis B virus | - | 73%
Cc1cc(SC2=C(O)CC(C)(C)OC2=O)c(C(C)(C)C)cc1N | Nonstructural protein 5B | - | IC50 | - | Hepatitis C virus | - | >50 µM
CNC(=O)c1c(-c2ccc(F)cc2)oc2cc(C(C)(C)O)c(OC(C)C)cc12 | Nonstructural protein 5B | - | IC50 | - | Hepatitis C virus | - | ≤0.5 µM
C=CC1C[C@@]1(NC(=O)[C@@H]1C[C@@H](Oc2cc(-c3ccccc3)nc3cc(OC)ccc23)CN1C(=O)[C@@H](NC(=O)COC)C(C)(C)C)C(=O)NS(=O)(=O)C1(Cc2ccccc2)CC1 | NS3/NS4A protease | - | IC50 | BMS | Hepatitis C virus | - | 0.05–0.5 µM
CSc1ncc(C(=O)N(C)CCO)c(Nc2ccc3[nH]ncc3c2)n1 | Reverse transcription | - | IC50 | - | Hepatitis B virus | - | ~0.1 µg/mL
COc1ccc2c(C[C@@H]3C[C@H]4C(=O)N[C@]5(C(=O)O)CC5/C=C/CCCCC[C@H](NC(=O)OC(C)(C)C)C(=O)N4C3)cc(-c3ccccc3)nc2c1 | NS3 serine protease | - | Ki | - | Hepatitis C virus | - | <0.001 µM
CNC(=O)c1c(-c2ccc(F)cc2)oc2cc(N(C)S(C)(=O)=O)c(OCC(=O)Nc3nc(C)c(C)s3)cc12 | Nonstructural protein 5B | - | IC50 | - | Hepatitis C virus | - | ≤0.5 µM
COCCNC(=O)c1cnc(SC)nc1Nc1ccc2cn[nH]c2c1 | Reverse transcription | - | IC50 | - | Hepatitis B virus | - | <1 µg/mL
CC(=O)c1ccc2c(C3CCCCC3)c(-c3ccc4nc(-c5sc(C)nc5C)ccc4c3)n(CC(=O)N3CCOCC3)c2c1 | NS5B | - | IC50 | 1b | Hepatitis C virus | luciferase | 0.12 µM
CSc1ncc(C(=O)N2CCN(CCO)CC2)c(Nc2ccc3cn[nH]c3c2)n1 | Reverse transcription | - | IC50 | - | Hepatitis B virus | - | <1 µg/mL
COc1nc(NCCc2c[nH]c3ccccc23)nc(Nc2ccc3cn[nH]c3c2)n1 | DNA polymerase | 1 µg/mL | inhibition | - | Hepatitis B virus | - | 49%
NC(N)=NCc1ccc(Oc2ccccc2)cc1 | miRNA-122 | - | IC50 | - | Hepatitis C virus | substrate cleavage | >1000 µM
CCc1cc2c(cc1F)c(C#N)c(-c1ccc(S(=O)(=O)N[C@@H](C)C(F)(F)F)cn1)n2-c1ncccn1 | Nonstructural protein 4B | - | IC50 | 1b | Hepatitis C virus | PCR | 11.6 µM
CSc1ncc(C(N)=O)c(Nc2ccc3cn[nH]c3c2)n1 | Reverse transcription | - | IC50 | - | Hepatitis B virus | - | ~0.1 µg/mL
COc1nc(Nc2ccc3[nH]ncc3c2)nc(N2CCN(C)CC2)n1 | DNA polymerase | 0.01 µg/mL | inhibition | - | Hepatitis B virus | - | 32%
COc1ccc2c(O[C@@H]3C[C@@H](C(=O)N[C@@]4(C(=O)NS(=O)(=O)C5(CC6CC6)CC5)CC45CC5)N(C(=O)[C@@H](NC(=O)OC(C)(C)C)C(C)(C)C)C3)cc(-c3ccccc3)nc2c1 | NS3/NS4A protease | - | IC50 | BMS | Hepatitis C virus | - | 0.05–0.5 µM
CCOC(=O)C1=CN(N2CCN(c3nc(Nc4ccc5cn[nH]c5c4)nc(OC)n3)CC2)C(SC)N=C1 | DNA polymerase | 1 µg/mL | inhibition | - | Hepatitis B virus | - | 53%
CCOC(=O)c1cnc(SC2=C(O)CC(CCc3ccc(OC)cc3)(C3CCCC3)OC2=O)[nH]1 | Nonstructural protein 5B | - | IC50 | - | Hepatitis C virus | - | 1–10 µM
C=CC1CC1(NC(=O)[C@@H]1C[C@@H](Oc2cc(-c3ccccc3)nc3cc(OC)ccc23)CN1C(=O)[C@@H](NC(=O)OC(C)(C)C)C(C)(C)C)C(=O)NS(=O)(=O)C1(COC)CC1 | NS3/NS4A protease | - | IC50 | BMS | Hepatitis C virus | - | <0.05 µM
COc1ccc2c(O[C@@H]3C[C@H]4C(=O)N[C@]5(C(=O)NS(=O)(=O)C6CC6)C[C@H]5/C=C\CCCCN(NC(=O)OC(C)(C)C)C(=O)[C@@H]4C3)cc(-c3ccccc3)nc2c1 | Nonstructural protein 3/4A | - | Ki | 1a | Hepatitis C virus | - | 0.000007 µM
O=C1CC(=O)OC(CCc2ccccc2CO)(C2CCCC2)C1 | Nonstructural protein 5B | - | IC50 | - | Hepatitis C virus | - | 10–50 µM
O=C(NCCSSCCNC(=O)/C(Cc1ccc(O)c(Br)c1)=N/O)/C(Cc1ccc(O)c(Br)c1)=N\O | NS3 helicase | - | IC50 | - | Hepatitis C virus | fluorescence | 17 µM
CNC(=O)c1c(-c2ccc(F)cc2)oc2cc(N(C)S(C)(=O)=O)c(O)cc12 | Nonstructural protein 5B | - | IC50 | - | Hepatitis C virus | - | ≤0.5 µM
COc1ccc(-c2cc(-c3ccc(OCc4ccccc4)cc3)nc3cc(C(=O)O)nn23)cc1Cl | RNA-dependent RNA polymerase | - | IC50 | - | Hepatitis C virus | - | 1–10 µM
CSc1ncc(C(=O)NCCO)c(Nc2ccc3cn[nH]c3c2)n1 | Reverse transcription | - | IC50 | - | Hepatitis B virus | - | 0.01 µg/mL
COc1nc(NCCN(C)C)nc(Nc2ccc3[nH]ncc3c2)n1 | DNA polymerase | 0.1 µg/mL | inhibition | - | Hepatitis B virus | - | 41%
CSc1ncc(C(N)=O)c(Nc2ccc3[nH]ncc3c2)n1 | Reverse transcription | - | IC50 | - | Hepatitis B virus | - | <0.1 µg/mL
C=CC1C[C@@]1(NC(=O)[C@@H]1C[C@@H](Oc2cc(-c3ccccc3)nc3cc(OC)ccc23)CN1C(=O)[C@@H](NC(=O)OC1(C(=O)OCC)CC1)C(C)(C)C)C(=O)NS(=O)(=O)C1(Cc2ccccc2)CC1 | NS3/NS4A protease | - | IC50 | BMS | Hepatitis C virus | - | 0.05–0.5 µM
COc1nc(NCCCN2CCOCC2)nc(Nc2ccc3cn[nH]c3c2)n1 | DNA polymerase | 0.1 µg/mL | inhibition | - | Hepatitis B virus | - | 56%
O=C(O)c1cnn2c(-c3ccccc3-c3ccccc3Oc3ccccc3)ccnc12 | RNA-dependent RNA polymerase | - | IC50 | - | Hepatitis C virus | - | >10 µM
CO[C@@H]1[C@H](O)[C@@H](COP(=O)(O)OP(=O)(O)OP(=O)(O)O)O[C@H]1n1ccc(N)nc1=O | Replicase complex | - | IC50 | - | Hepatitis C virus | - | 4.8 µM
CC(C)NC1=NC(NC(C)C)N(CN)C(Nc2ccc3cn[nH]c3c2)=N1 | DNA polymerase | 1 µg/mL | inhibition | - | Hepatitis B virus | - | 77%
COC(=O)[C@H](NC(=O)c1cnc(SC)nc1Nc1ccc2[nH]ncc2c1)[C@@H](C)O | Reverse transcription | - | IC50 | - | Hepatitis B virus | - | ~1 µg/mL

Repeating the final 5 entries:

COc1nc(NCCCN2CCOCC2)nc(Nc2ccc3cn[nH]c3c2)n1 ; protein: DNA polymerase ; dose: 0.1 µg/mL ; endpoint: inhibition ; species: Hepatitis B virus ; value: 56%
O=C(O)c1cnn2c(-c3ccccc3-c3ccccc3Oc3ccccc3)ccnc12 ; protein: RNA-dependent RNA polymerase ; endpoint: IC50 ; species: Hepatitis C virus ; value: >10 µM
CO[C@@H]1[C@H](O)[C@@H](COP(=O)(O)OP(=O)(O)OP(=O)(O)O)O[C@H]1n1ccc(N)nc1=O ; protein: Replicase complex ; endpoint: IC50 ; species: Hepatitis C virus ; value: 4.8 µM
CC(C)NC1=NC(NC(C)C)N(CN)C(Nc2ccc3cn[nH]c3c2)=N1 ; protein: DNA polymerase ; dose: 1 µg/mL ; endpoint: inhibition ; species: Hepatitis B virus ; value: 77%
COC(=O)[C@H](NC(=O)c1cnc(SC)nc1Nc1ccc2[nH]ncc2c1)[C@@H](C)O ; protein: Reverse transcription ; endpoint: IC50 ; species: Hepatitis B virus ; value: ~1 µg/mL